For data set [1], the system named is EA.hy926. In words: MTT cytotoxicity test. In kind it is cell-based, human. To be noted: SI = IC50(EA.hy926)/IC50(x), x = average IC50 of all chemo-sensitive tested tumor cell lines. From the text:
(§1) The group of human cell lines used in this study were represented by the tumor cell lines MDA-MB (breast carcinoma), EJ (urinary bladder carcinoma), K-562 (chronic myeloid leukemia), HL-60 (acute pre-myeloid leukemia), HL-60/DOX (multi-drug resistant HL-60 cell line, with over expression of MRP-1) and the non-tumorigenic cell lines HEK-293 (embryonic kidney cells) and EA.hy926 (vascular endothelial cells). EJ, HL60 and EA.hy926 were purchased from American Type Culture Collection (ATCC) (Manassas, Virginia). The other cell lines were purchased from the German Collection of Microorganisms and Cell Cultures (DSMZ GmbH, Braunschweig, Germany). HL-60/DOX cell lines were generated by periodically treating HL-60 cells with anthracyclins. The conditions in which the cell culture flasks were maintained were as follows: 37 °C in an incubator “BB 16-Function Line” Heraeus (Kendro, Hanau, Germany) with 5% CO2 humidified atmosphere. The growth medium was 90% RPMI-1640, supplemented with 10% FBS and 2 mM L-glutamine. MDA-MB-231, EJ, HEK-293 and EA.hy926 cells were maintained as adherent monolayer cultures while all the other (leukemic) cell lines were grown as suspension type cultures. Cells were maintained in log phase: the adherent cell lines were subjected to trypsinization 1–2 times a week and the leukemic cell lines were passaged 2–3 times a week by removing of part of the cellular suspension and substituting it with fresh medium.
(§2) The evaluation of cytotoxic activity was conducted by MTT test as described previously. The median inhibitory concentration (IC50) values which represent the half-maximal concentration values were calculated from sigmoidal concentration–response curves, using non-linear regression analysis (Curve fit, GraphPad Prizm 5.0 software, GraphPad Software Inc., San Diego, CA, USA). The selectivity index was calculated as the ratio of the IC50 of a non-cancerous line (HEK-293 or EA.hy926) and the average IC50 of all chemosensitive tested tumor cell lines (x). Therefore, SI=IC50HEK-293/IC50x . The resistance index (RI) was calculated as the ratio of IC50 of the multi-drug resistant HL-60/DOX cell line and the IC50 of its parent cell line: RI=IC50HL-60/DOX/IC50HL-60 .

The test system of data set [2] is HEK-293. In words: MTT cytotoxicity test. The format is cell-based, human. To be noted: SI = IC50(HEK-293)/IC50(x), x = average IC50 of all chemo-sensitive tested tumor cell lines.
Text: as §1, §2

In data set [3] the test system is HL-60/DOX. In words: MTT cytotoxicity test. To be noted: RI = IC50(HL-60/DOX)/IC50(HL-60). The format is cell-based, human.
Text: as §1, §2
Background: Formazan colour is commonly taken as a measure of viable cells.

Data set [4] deals with MRSA biofilm. In words: Biofilm assay of MRSA. The format is cell-based, Staphylococcus aureus. From the text:
The Gram-positive bacterial strains that were examined for susceptibility were: Staphylococcus aureus (ATCC 29213, American Type Cell Culture Collection, Manassas, VA, USA), Staphylococcus aureus—MRSA (NBIMCC 8327-resistant to methicillin and oxacillin, National Bulgarian Collection for Industrial Microorganisms and Cell Cultures, Sofia, Bulgaria), Enterococcus faecalis (ATCC 29212) and Streptococcus pyogenes (SAIMC 10535, Collection of the Stephan Angeloff Institute of Microbiology, Sofia, Bulgaria). The only Gram-negative bacterial strain used was Escherichia coli (ATCC 35218). Bacteria were maintained in Trypticase Soy Broth (TSB, Himedia, India) at 37 °C, aerobic conditions. For the experiments brain heart infusion (BHI) broth (#M210 HiMedia, Mumbai, India) was used for E. faecalis and S. pyogenes and Mueller Hinton broth (MHB, #M0405B) from Thermo Scientific-Oxoid (Basingstoke, UK)—for all other strains.
The bacterial inoculum was prepared as described above for the BMD. […] After that an optimized protocol was applied for the visualization of the biofilm. Firstly, the supernatant was removed, and planktonic cells were removed by washing the wells carefully 3× with 200 μL/well PBS. Then, fixing of the remaining cells was performed by incubation with 200 μL/well methanol for 15 sec at room temperature. The methanol was removed and the plate was dried by air for 5–10 s. Next, 50 μL of 2% Hucker crystal violet was poured into the wells and excess stain was rinsed off by running tap water. […] Then the dye bound to biofilm in the wells was re-solubilized with 160 μL 33% acetic acid and the absorbance of each well was measured at 550 nm with lid (Table S1 in Supplementary Materials). […] MBIC were assessed visually and MBIC50 were calculated by GraphPad Prism software with a mathematical model for a dose–response relationship (variable slope) after normalization of the data and logarithmic transformation of the applied concentrations (X-data).

The compound `CC(C)=CCC[C@]1(C)[C@@H](CC=C(C)C)C[C@H]2C(=O)[C@]1(C(=O)C(C)C)C(=O)C(CC=C(C)C)=C2O` [Compound 5, (1S,5R,7S,8R)-4-hydroxy-1-isobutyryl-8-methyl-3,7-bis(3-methylbut-2-en-1-yl)-8-(4-methylpent-3-en-1-yl)bicyclo[3.3.1]non-3-ene-2,9-dione] showed an SIEA.hy926/x in data set [1] of 7.14. The same compound had an SIHEK-293/x in data set [2] of 0.68. In addition, the RI in data set [3] is 1.47. Besides, in data set [4], the “MBIC as multiple of MIC” value is given as “½ MIC”.

In turn, “(1R,5R,7S,8R)-4-hydroxy-5,8-dimethyl-3,7-bis(3-methylbut-2-en-1-yl)-1-(2-methylbutanoyl)-8-(4-methylpent-3-en-1-yl)bicyclo[3.3.1]non-3-ene-2,9-dione [Compound 4]” showed an SIEA.hy926/x in data set [1] of 0.35. This compound gave an SIHEK-293/x in data set [2] of 2.39. In data set [3], this compound gave an RI of 0.55. For the same compound, the “MBIC as multiple of MIC” value in data set [4] is listed as “MIC”.

In turn, `CC(C)=CCC[C@]1(C)[C@@H](CC=C(C)C)C[C@]2(C)C(=O)C(CC=C(C)C)=C(O)[C@@]1(C(=O)C(C)C)C2=O` [Compound 3, hyperpolyphyllirin/hyperibine J] showed an SIEA.hy926/x in data set [1] of 3.21. Also, the SIHEK-293/x in data set [2] is listed as 1.73. The RI in data set [3] was found to be 0.12. For the same compound, in data set [4], the “MBIC as multiple of MIC” value is reported as “½ MIC”.

Turning to `CC(C)=CCC/C(C)=C/COc1cc(O)cc(O)c1C(=O)C(C)C` [Compound 1, (E)-1-[2-{(3,7-dimethylocta-2,6-dien-1-yl)oxy}-4,6-dihydroxyphenyl]-2-methylpropan-1-one], the SIEA.hy926/x in data set [1] is given as 0.46. In data set [2], this compound registered an SIHEK-293/x of 1.02. This compound showed an RI in data set [3] of 0.34.

In data set [1], `CC[C@H](C)C(=O)c1c(O)cc(O)cc1OC/C=C(\C)CCC=C(C)C` [Compound 2, olympicin A] showed an SIEA.hy926/x of 3.00. In data set [2], this compound had an SIHEK-293/x of 1.99. For the same compound, in data set [3], the RI worked out at 0.14.
